From paper PMC7873859

System: O=[N+]([O-])c1ccc(O[C@@H]2O[C@H](CO)[C@H](O)[C@H](O)[C@H]2O)cc1
Test: purified protein
Settings: pH 8.0; 37.0 °C

Rv1717 (Mycobacterium tuberculosis H37Rv)
Km: 382 µM
